PubChem BioAssay AID624099 | ICCB-Longwood | 2012

Screen: 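Human genes that papillomavirus E2 requires to repress the HPV18 LCR promoter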 (primary screen)
System: human C33A cervical carcinoma cells (HPV-negative) stably expressing BPV1 E2 and an HPV18 LCR luciferase reporter
Reagents: siRNA pool against human genes, 40 nM
Time to read-out: 72 h
Measured: 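Per-well luciferase luminescence, z-scored on each plate against the plate mean and SD with control wells left out, then averaged across three replicate plates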
Reading the numbers: mean z-score and z-score: higher = stronger reporter signal, weaker E2 silencing
Call rule: 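Hit if mean z-score reaches 2 and two or more of three replicate z-scores also reach 2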
Here is one part, drawn at random, of about 21,000 reagents tested. 497 of all reagents (2.4%) were called active. 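Higher z means weaker E2 silencing; only reporter increases were scored, and knock-downs that hurt cell survival may mask genuine repressor factors.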 Entries without a mark were called inactive. The numbers tell different reagents against one gene apart.

| target gene | pool no. | mean z-score | z-score, replicate A | z-score, replicate B | z-score, replicate C |
| --- | --- | --- | --- | --- | --- |
| PRAME (GeneID 23532) | 1 | 1.57 | 1.86 | 1.41 | 1.42 |
| TNK1 (GeneID 8711) | 1 | 0.66 | 0.34 | 0.91 | 0.72 |
| CD5 (GeneID 921) | 1 | -0.95 | -0.93 | -1.01 | -0.92 |
| ABHD17AP5 (GeneID 91219) | 1 | -0.63 | -0.69 | -0.71 | -0.5 |
| LYPD6 (GeneID 130574) | 1 | 0.96 | 0.95 | 1.08 | 0.87 |
| LINC01913 (GeneID 388942) | 1 | -0.57 | -0.35 | -0.56 | -0.78 |
| PTGER1 (GeneID 5731) | 1 | -0.71 | -0.4 | -0.84 | -0.88 |
| FAXDC2 (GeneID 10826) | 1 | -0.6 | -0.44 | -0.49 | -0.86 |
| ZNF473 (GeneID 25888) | 1 | 0.06 | 0.17 | 0.16 | -0.16 |
| ACY3 (GeneID 91703) | 1 | 0.34 | 0.35 | 0.35 | 0.32 |
| IRF2 (GeneID 3660) | 1 | 0.32 | 0.35 | 0.39 | 0.21 |
| KLHDC3 (GeneID 116138) | 1 | -2.58 | -3.26 | -2.28 | -2.19 |
| BET1L (GeneID 51272) | 1 | -0.56 | -0.34 | -0.9 | -0.43 |
| DNAH10 (GeneID 196385) | 1 | 0.22 | 0.73 | 0.11 | -0.16 |
| DNAH10 (GeneID 196385) | 2 | -0.79 | -1.02 | -0.94 | -0.42 |
| DNAH10 (GeneID 196385) | 3 | 0.93 | 1.24 | 0.77 | 0.79 |
| RTL10 (GeneID 79680) | 1 | -3.97 | -4.04 | -3.86 | -4.01 |
| LOC400778 (retired record) (GeneID 400778) | 1 | 0.2 | 0.23 | 0.03 | 0.33 |
| LOC388751 (retired record) (GeneID 388751) | 1 | 1.1 | 1.46 | 0.89 | 0.95 |
| MR1 (GeneID 3140) | 1 | -0.07 | -0.21 | 0.02 | -0.03 |
| EFHD2 (GeneID 79180) | 1 | 1.58 | 1.74 | 1.69 | 1.31 |
| ART5 (GeneID 116969) | 1 | -0.29 | -0.11 | -0.4 | -0.36 |
| THSD7A (GeneID 221981) | 1 | -0.43 | -0.59 | -0.35 | -0.34 |
| SETD1B (GeneID 23067) | 1 | -0.44 | -0.66 | -0.42 | -0.25 |
| JMJD7-PLA2G4B (GeneID 8681) | 1 | -0.37 | -0.45 | -0.23 | -0.42 |
| DIRAS2 (GeneID 54769) | 1 | -0.76 | -0.73 | -0.65 | -0.91 |
| MITF (GeneID 4286) | 1 | 0.96 | 0.78 | 1.1 | 1 |
| TEX28 (GeneID 1527) | 1 | 0.48 | 0.28 | 0.86 | 0.31 |
| RNF125 (GeneID 54941) | 1 | 0.56 | 0.45 | 0.59 | 0.65 |
| PCBP2P2 (GeneID 286157) | 1 | 0.07 | 0.02 | 0.18 | 0.01 |
| KTN1-AS1 (GeneID 100129075) | 1 | 1.47 | 1.23 | 1.67 | 1.51 |
| LY6K (GeneID 54742) | 1 | 1.39 | 1.6 | 1.39 | 1.2 |
| CFHR2 (GeneID 3080) | 1 | -0.73 | -0.66 | -0.8 | -0.73 |
| LOC402520 (retired record) (GeneID 402520) | 1 | -0.04 | 0.2 | -0.12 | -0.2 |
| TRMT10A (GeneID 93587) | 1 | -1.21 | -1.11 | -1.3 | -1.22 |
| POLA2 (GeneID 23649) | 1 | 0.31 | 0.51 | 0.37 | 0.06 |
| HERC2P10 (GeneID 390561) | 1 | 0.9 | 0.81 | 1.25 | 0.65 |
| NLGN4X (GeneID 57502) | 1 | -0.44 | -0.6 | -0.12 | -0.62 |
| AHCYL1 (GeneID 10768) | 1 | -0.97 | -0.9 | -1.09 | -0.93 |
| NCOA6 (GeneID 23054) | 1 | 0.35 | 0.32 | 0.37 | 0.35 |
| KCND2 (GeneID 3751) | 1 | -0.84 | -1 | -0.57 | -0.94 |
| DUOX1 (GeneID 53905) | 1 | -0.43 | -0.3 | -0.34 | -0.65 |
| LOC401256 (retired record) (GeneID 401256) | 1 | -1.62 | -2 | -1.44 | -1.42 |
| SDSL (GeneID 113675) | 1 | -2.13 | -2.04 | -1.88 | -2.46 |
| EFNA1 (GeneID 1942) | 1 | -0.25 | -0.24 | -0.17 | -0.35 |
| CARD11 (GeneID 84433) | 1 | -1.45 | -1.49 | -1.74 | -1.11 |
| MIPOL1 (GeneID 145282) | 1 | -1.86 | -1.7 | -1.66 | -2.22 |
| RHEB (GeneID 6009) | 1 | -0.13 | -0.28 | -0.33 | 0.23 |
| BZW2 (GeneID 28969) | 1 | 0.39 | 0.11 | 0.57 | 0.48 |
| HEPHL1 (GeneID 341208) | 1 | 0.29 | 0.28 | 0.05 | 0.54 |
| SPIB (GeneID 6689) | 1 | 1.41 | 1.41 | 1.31 | 1.53 |
| LOC729417 (retired record) (GeneID 729417) | 1 | 0.41 | 0.55 | 0.51 | 0.18 |
| SLC24A1 (GeneID 9187) | 1 | 0.35 | 0.05 | 0.71 | 0.29 |
| TRNAU1AP (GeneID 54952) | 1 | 0.46 | 0.75 | 0.27 | 0.36 |
| MS4A7 (GeneID 58475) | 1 | -0.62 | -0.71 | -0.58 | -0.57 |
| GEMIN4 (GeneID 50628) | 1 | 0.03 | -0.07 | -0.15 | 0.32 |
| SOX1 (GeneID 6656) | 1 | 0.93 | 0.83 | 0.9 | 1.07 |

3 consecutive reagents from above, quoted:
| target gene | pool no. | mean z-score | z-score, replicate A | z-score, replicate B | z-score, replicate C |
| --- | --- | --- | --- | --- | --- |
| RTL10 (GeneID 79680) | 1 | -3.97 | -4.04 | -3.86 | -4.01 |
| LOC400778 (retired record) (GeneID 400778) | 1 | 0.2 | 0.23 | 0.03 | 0.33 |
| LOC388751 (retired record) (GeneID 388751) | 1 | 1.1 | 1.46 | 0.89 | 0.95 |
